Pooled drug test results. Numbers come from NIAID ChemDB, via PubChem.

Common to all: tests in culture; organism: Hepatitis C virus; cell line: Huh7; endpoint: EC50

An empty or dashed field is not shown. ECn is the concentration giving n% inhibition of infection, replication or growth. Conditions beyond the fields shown may differ between rows. a–b is a range or a potency band.

SMILES,strain or isolate,read by,value
Cc1cc(-c2nnc(N[C@@H]3CCC[C@H](O)C3)o2)nc2c(C(C)(C)C)cc(OCC(F)(F)F)cc12,GT 1b H94N,,0.0055 µM
C=CC1CC1(NC(=O)[C@@H]1C[C@@H](Oc2cc(-c3ccccc3)nc3cc(OC)ccc23)CN1C(=O)[C@@H](NC(=O)OC1CCCC1)C(C)(C)C)C(=O)NS(=O)(=O)C1(C)CC1,1b,replicon,<0.05 µM
CCNC(=O)N(CCCN(C)C)C(=O)c1ccc2c(C3CCCCC3)c3n(c2c1)CCCc1ccccc1-3,,replicon,1–10 µM
COc1cc(C(=O)N2[C@@H](c3nccs3)[C@@H](c3cnccn3)C[C@@]2(CCS(C)(=O)=O)C(=O)O)ccc1C(C)(C)C,genotype 1b,replicon,>10 µM
O=c1nc(NO)c(I)cn1[C@@H]1O[C@H](CO)C[C@H]1O,,,34.7 µM
C=CC1CC1(NC(=O)[C@@H]1C[C@@H](Oc2cc(-c3ccccc3)nc3cc(OC)ccc23)CN1C(=O)[C@@H](NC(=O)OC(C)(C)C)C(C)(C)C)C(=O)NS(=O)(=O)C1(CC2CC2)CC1,1b,replicon,<0.05 µM
O=c1nc(NO)ccn1[C@@H]1O[C@H](CO)[C@@H](O)[C@H]1O,,,0.7 µM
Cn1cnc(CC(=O)N/N=C/c2ccccc2OS(=O)(=O)c2ccc(C(F)(F)F)cc2)c1,,replicon,<5 µM
COc1cc(C(=O)N2[C@@H](c3nccs3)[C@@H](c3cnccn3)C[C@@]2(Cc2ccsn2)C(=O)O)ccc1C(C)(C)C,genotype 1b,replicon,<0.1 µM
Nc1nc(=O)n([C@H]2O[C@@H](CO)C[C@@H]2O)cc1F,,,42 µM
COc1cc(C(=O)N2[C@@H](c3nccs3)[C@@H](c3cnccn3)C[C@@]2(Cc2nccs2)C(=O)O)ccc1C(C)(C)C,genotype 1b,replicon,<0.1 µM
COc1ccc2c(O[C@@H]3C[C@@H](C(=O)O)N(C(=O)OC(C)(C)C)C3)cc(-c3ccccc3)nc2c1,1b,replicon,<0.05 µM
Cc1cc(-c2nnc(N[C@@H]3CCC[C@H](O)C3)o2)nc2c(C(C)(C)C)cc(NCC(F)(F)F)cc12,GT 1b H94N,,0.0012 µM
O=C(O)c1ccc2c(C3CCCCC3)c3n(c2c1)CC(=O)N3Cc1ccccc1,,replicon,>10 µM
COc1cc(C(=O)N2[C@@H](c3nccs3)[C@@H](c3cnccn3)C[C@@]2(Cc2cnc[nH]2)C(=O)O)ccc1C(C)(C)C,Genotype 1A,replicon,>100 µM
O=C(Cc1ccccc1)N/N=C/c1ccccc1OS(=O)(=O)c1ccc(F)c(F)c1,,replicon,5–50 µM
O=C(O)c1ccc2c(C3CCCCC3)c3n(c2c1)C/C=C\CN(CCO)c1ccccc1-3,,replicon,1–10 µM
C=CCC1(S(=O)(=O)NC(=O)C2(NC(=O)[C@@H]3C[C@@H](Oc4cc(-c5ccccc5)nc5cc(OC)ccc45)CN3C(=O)[C@@H](NC(=O)OC(C)(C)C)C(C)(C)C)CC2)CC1,1b,replicon,0.5–5 µM
COc1cccc(CC(=O)N/N=C/c2ccccc2OS(=O)(=O)c2ccc(Oc3cccnc3)cc2)c1,,replicon,5–50 µM
C=C[C@H]1C[C@@]1(NC(=O)[C@@H]1C[C@@H](Oc2cc(-c3ccccc3)nc3cc(OC)ccc23)CN1C(=O)[C@@H](NC(=O)OC(C)(C)C)C(C)(C)C)C(=O)NS(=O)(=O)C1(CCOC)CC1,1b,replicon,<0.05 µM
O=C(O)/C=C/c1ccc(NC(=O)C2(NC(=O)c3ccc4c(C5CCCCC5)c5n(c4c3)CCCc3cccnc3-5)CCNCC2)cc1,,replicon,0.01–1 µM
COc1cccc(CC(=O)N/N=C/c2cccc(F)c2OS(=O)(=O)c2ccc(C)cc2)c1,,replicon,5–50 µM
C=CC1C[C@@]1(NC(=O)[C@@H]1C[C@@H](Oc2cc(-c3ccccc3)nc3cc(OC)ccc23)CN1C(=O)[C@@H](NC(=O)Oc1ccc(C)cc1)C(C)(C)C)C(=O)NS(=O)(=O)C1(Cc2ccccc2)CC1,1b,replicon,0.5–5 µM
CCCCOc1ccc(S(=O)(=O)Oc2ccccc2/C=N/NC(=O)Cc2cccc(OC)c2)cc1,,replicon,<5 µM
COc1cc(C(=O)N2[C@@H](c3ncc(C)s3)[C@@H](c3cnccn3)C[C@@]2(Cc2ccsn2)C(=O)O)ccc1C(C)(C)C,Genotype 1A,replicon,<10 µM
C=CC1CC1(NC(=O)[C@@H]1C[C@@H](Oc2cc(-c3ccccc3)nc3cc(OC)ccc23)CN1C(=O)[C@@H](NC(=O)OC(C)(C)C)C(C)(C)C)C(=O)NS(=O)(=O)C1([Si](C)(C)C)CC1,1b,replicon,<0.05 µM
O=C(O)c1ccc2c(C3CCCCC3)c3n(c2c1)CC(C(=O)N1CCOCC1)Cc1ccncc1-3,,replicon,0.01–1 µM
C=CC1C[C@@]1(NC(=O)[C@@H]1C[C@@H](Oc2cc(-c3ccccc3)nc3cc(OC)ccc23)CN1C(=O)[C@@H](NC(=O)OCCOC)C(C)(C)C)C(=O)NS(=O)(=O)C1(Cc2ccccc2)CC1,1b,replicon,0.5–5 µM
COC1c2ccccc2-c2c(C3CCCCC3)c3ccc(C(=O)O)cc3n21,,replicon,>10 µM
COc1cc(C(=O)N2[C@@H](c3nccs3)[C@@H](c3cnccn3)C[C@@]2(CCS)C(=O)O)ccc1C(C)(C)C,Genotype 1A,replicon,10–100 µM
C=C[C@H]1C[C@@]1(NC(=O)[C@@H]1C[C@@H](Oc2cc(-c3ccccc3)nc3cc(OC)ccc23)CN1C(=O)[C@@H](NC(=O)OC(C)(C)C)C(C)(C)C)C(=O)NS(=O)(=O)C1(Cc2ccc(OC)cc2)CC1,1b,replicon,0.05–0.5 µM

A second listing of 4 rows from above:

SMILES,strain or isolate,read by,value
Nc1nc(=O)n([C@H]2O[C@@H](CO)C[C@@H]2O)cc1F,,,42 µM
C=CC1C[C@@]1(NC(=O)[C@@H]1C[C@@H](Oc2cc(-c3ccccc3)nc3cc(OC)ccc23)CN1C(=O)[C@@H](NC(=O)OCCOC)C(C)(C)C)C(=O)NS(=O)(=O)C1(Cc2ccccc2)CC1,1b,replicon,0.5–5 µM
O=C(O)/C=C/c1ccc(NC(=O)C2(NC(=O)c3ccc4c(C5CCCCC5)c5n(c4c3)CCCc3cccnc3-5)CCNCC2)cc1,,replicon,0.01–1 µM
O=c1nc(NO)ccn1[C@@H]1O[C@H](CO)[C@@H](O)[C@H]1O,,,0.7 µM